# Results reported in ChEMBL document CHEMBL3611982, “Lowering the pKa of a bisimidazoline lead with halogen atoms results in improved activity and selectivity against Trypanosoma brucei in vitro” (Eur J Med Chem, 2015).
# Tested on: Trypanosoma brucei brucei
# Experiment: Trypanocidal activity against Trypanosoma brucei brucei s427 measured within 6 hrs by propidium iodide staining-based fluorimetric analysis
# Type: functional, organism-based
structure (smiles),measurement,value
O=[As]c1ccccc1 (stereo unspecified),Activity,Active

# Activity calls are given as the source filed them. The rule behind the calls is not given here.
